This passage reports inhibition results from PubChem BioAssay AID1626 (SRMLSC, 2009).

The other results are listed elsewhere or left out. The source made the active and inactive calls. Cut-off read from the data, not from the text of the source: inconclusive = inhibition above about 80% without an active follow-up result; inactive = below that; test concentration not stated here.

A short description of the assay: M. tuberculosis H37Rv growth inhibitors, H37Rv strain (AID 1626).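 Note: bacteria incubated seven days before Alamar blue readout; 0% = bacteria only wells and 100% = bacteria with antibiotic wells.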 The note with it: hits give high values, concentration not given here.
On to `C[C@@H]1C=CCP(=O)(Oc2ccccc2)O1` (stereo not given in full), for which the inhibition (usually the change of the read-out against control, counted positive when it falls) was inactive: -0.38%. `C[C@H]1OP(=O)(Oc2ccccc2)C[C@@H]2O[C@@H]21` (stereo not given in full): the inhibition is inactive: -14.4%. To `CC(=O)Nc1ccc(Oc2c([N+](=O)[O-])cc([N+](=O)[O-])cc2[N+](=O)[O-])cc1` belongs inactive: 3.4%; to `CC(=O)Nc1ccc([As](=O)(O)O)c(O)c1`, inactive: 2.74%. As for `CCOc1ccc(C2=NCC(CBr)S2)cc1` (stereo not given), the inhibition is inactive: -2.28%.

With `O=P1(Nc2nc3ccc(Cl)cc3s2)COc2ccccc2O1` (stereo not given), the inhibition is inactive: 1.24%. As to `CC(C)(C)C(=O)NC(Sc1ccccc1)C(Cl)(Cl)Cl` (stereo not given), the inhibition was inactive: 5.12%. Regarding `CCC(=O)N1C2C3N(C(=O)CC)C1C1N(C(=O)CC)C(C(N1C(=O)CC)N3C(=O)CC)N2C(=O)CC`, the inhibition was inactive: -4.83%. As to `CC(=O)NC(SC(=S)N(CC(C)C)CC(C)C)C(Cl)(Cl)Cl` (stereo not given), the inhibition was inactive: 31.4%. Next, `Cc1ccc(OP(=O)(Nc2ccccn2)Oc2ccc(C)cc2)cc1`: inactive: 2.02%.

With `COC(=O)c1cc2c(s1)N=C(c1ccccc1)N(C)P2(=O)N1CCOCC1` (stereo not given), the inhibition is inactive: 1.1%.

As for `CN(C)C(=O)Oc1noc2ccccc12`, the inhibition is inactive: -0.42%.

Regarding `Cc1ccccc1OP(=O)(Nc1ccccn1)Oc1ccccc1C`, the inhibition is inactive: 4.79%. As for `Cc1ccc(NP(=O)(Oc2cccc(C)c2)Oc2cccc(C)c2)nc1`, the inhibition is inactive: 0.9%. Turning to `CCOC(=O)NC(Sc1ccccc1)C(Cl)(Cl)Cl` (stereo not given), the inhibition is inactive: -6.52%. For `c1ccc(-c2nn[nH]n2)c(-c2nn[nH]n2)c1`, the inhibition is inactive: -4.04%. For the molecule `CCNC(=S)/N=C(\N)N[N+](=O)[O-]`, the inhibition is inactive: 7.36%. On to `O=C(NC1CCS(=O)(=O)C1)NP(=S)(Oc1ccccc1)Oc1ccccc1` (stereo not given), for which the inhibition is inactive: 2.42%. On to `O=[As](O)(c1ccccc1)c1ccc(O)cc1`, for which the inhibition was inactive: -13.6%.

As for `CC(=O)NC(SC(=S)N(C)C)C(Cl)(Cl)Cl` (stereo not given), the inhibition is inactive: -14.9%. Regarding `O=[N+]([O-])c1ncn(CCn2cnc([N+](=O)[O-])n2)n1`, the inhibition is inactive: -2.97%. Take `O=C(OC1CN2CCC1CC2)c1cccc(Cl)c1` (stereo not given): the inhibition is inactive: -4.66%. To `Nc1ccc([As](=O)(O)c2ccc([N+](=O)[O-])cc2)cc1` belongs inactive: 15.4%. Take `C(Cc1nn[nH]n1)Cc1nn[nH]n1`: the inhibition is inactive: -4.98%. For the molecule `O=P(Nc1ccccn1)(c1ccc(Br)cc1)c1ccc(Br)cc1`, the inhibition is inactive: 2.94%. On to `C[C@H]1OP(=O)(Oc2ccccc2)[C@H](O)[C@H](O)[C@H]1N=[N+]=[N-]` (stereo not given in full), for which the inhibition is inactive: -9.87%. Next, `O=P(Nc1nc2ccccc2s1)(c1ccccc1)c1ccccc1`: inactive: 7.71%. In the case of `CC(C)C(=O)NC(Sc1ccccc1)C(Cl)(Cl)Cl` (stereo not given), the inhibition was inactive: 5.29%. `O=P(Nc1nccs1)(c1ccccc1)c1ccccc1`: the inhibition is inactive: -7.62%. As to `c1nnnn1CCn1cnnn1`, the inhibition is inactive: -1.24%. Turning to `CCN(/C(=N/P(=O)(N1CCOCC1)N1CCOCC1)N1CCOCC1)c1ccc(OC)cc1`, the inhibition was inactive: 0.33%. For `Nc1ccc([As](=O)(O)c2ccc(N)cc2)cc1`, the inhibition was inactive: 27.5%. On to `CC1CCN(C(=O)Oc2c(Cl)cc(Cl)c3cccnc23)CC1`, for which the inhibition was inactive: 16.4%.

Consider `CN(C)C(=O)OCCc1n(C)cc[n+]1C`, for which the inhibition was inactive: -3.88%.

`CC(C)=N/N=C(\N)N[N+](=O)[O-]`: the inhibition is inactive: -7.33%. Next, `COc1ccc(C2=NCC(CBr)S2)cc1` (stereo not given): inactive: -8.33%; `CCc1nc2c(n1)c1c(non1O)c1c2no[n+]1[O-]`: inactive: -0.9%; `O=[N+]([O-])c1cc([N+](=O)[O-])c(CCNc2ccccc2)c([N+](=O)[O-])c1`: inactive: 24.5%. As for `Cc1ccc(NP(=O)(Oc2ccccc2)Oc2ccccc2)nc1`, the inhibition is inactive: 7.52%. In the case of `O=[N+]([O-])c1cccc2n[nH]nc12`, the inhibition was inactive: -2.25%. For the molecule `CC(=O)N1C2C3N(C(C)=O)C1C1N(C(C)=O)C(C(N1C(C)=O)N3C(C)=O)N2C(C)=O`, the inhibition was inactive: -5.56%. Consider `O=[N+]([O-])c1ncn(CCn2ncnc2[N+](=O)[O-])n1`, for which the inhibition is inactive: 1.34%. Next, `CC(C)(C)C(=O)NC(Sc1ccncn1)C(Cl)(Cl)Cl` (stereo not given): inactive: -0.24%. For `O=C(O)CNc1ccc([As](=O)(O)O)cc1`, the inhibition is inactive: -14.1%. As to `O=[N+]([O-])c1cccc(NC2=NCC(CBr)S2)c1` (stereo not given), the inhibition is inactive: 8.6%. With `O=C(Nc1cc([As](=O)(O)O)ccc1O)c1ccccc1`, the inhibition is inactive: -12.4%.

For the molecule `Nc1cccc2ccc([As](=O)(O)O)cc12`, the inhibition was inactive: -8.84%. Next, `CCN(N=Nc1nonc1N)c1nonc1N`: inactive: 2.29%. Next, `O=P(Nc1nc2ccc(Cl)cc2s1)(c1ccccc1)c1ccccc1`: inactive: 60.3%.

For `O=C(O)c1ccccc1[As](=O)(O)O`, the inhibition was inactive: 12.8%. With `CC(=O)Nc1ccc([As](=O)(O)O)cc1`, the inhibition is inactive: -10.8%. In the case of `Cc1ccc(NP(=O)(Oc2ccccc2F)Oc2ccccc2F)nc1`, the inhibition is inactive: 7.4%. `CN(C(=O)Cc1ccc(Cl)c(Cl)c1)[C@H]1CCCC[C@@H]1N1CCCC1`: the inhibition was inactive: -8.38%. `CCOP(=O)(Nc1ccccc1)OCC`: the inhibition was inactive: 5.46%. As for `Cc1cc(SC(NC(=O)c2ccc(F)cc2)C(Cl)(Cl)Cl)ncn1` (stereo not given), the inhibition was inactive: 1.26%. As to `Cc1c2non([O-])c-2c(C)[n+](=O)[n+]1[O-]`, the inhibition is inactive: -8.52%. Regarding `O=C(NC(Sc1ccncn1)C(Cl)(Cl)Cl)c1ccccc1` (stereo not given), the inhibition was inactive: -1.03%. In the case of `Oc1ccccc1CNc1ccccn1`, the inhibition was inactive: 18.1%. Next, `CC(C)CC(=O)NC(Sc1ccc(Cl)cc1)C(Cl)(Cl)Cl` (stereo not given): inactive: 1.94%; `Cc1ccc(N/C(=N/P(=O)(N2CCOCC2)N2CCOCC2)N2CCOCC2)cc1`: inactive: 0.64%.
